Compound potency records, mixed from different reports. Data source: NIAID ChemDB in PubChem.

All rows: tests in culture; agent: Semliki Forest virus; read by: cytopathic effect; measure: EC50

ECn: concentration that inhibits the pathogen or its effect by n%. Lines come from different laboratories, so protocols vary. Blank or dashed fields: not listed here.

SMILES,strain,cell line,value
Cc1nc(C(C)C)c2[nH]c(=S)[nH]c(=O)n12,,VERO,>200 µg/mL
NS(=O)c1ncnc2c1ncn2[C@H]1C[C@H](O)[C@@H](CO)O1,,,>320 µM
Cc1cn([C@H]2C[C@H]([N+](=O)[O-])[C@@H](CO)O2)c(=O)[nH]c1=O,,VERO,>200 µg/mL
NS(=O)(=O)c1ncnc2c1ncn2[C@@H]1O[C@H](CO)[C@@H](O)[C@@H]1O,,,>320 µM
Nc1ncnc2c1ncn2C1CC(COP(=O)(O)O)[C@@H](O)[C@H]1O,,VERO,≥10 µg/mL
O=c1[nH]c(=S)cnn1[C@@H]1O[C@H](CO)C(O)C1O,Sicilian,VERO,18.9 µg/mL
NSc1ncnc2c1ncn2[C@@H]1O[C@H](CO)[C@@H](O)[C@@H]1O,,,>320 µM
C=C(N=CC)c1nc(-c2ccccc2)n([C@@H]2O[C@H](CO)[C@@H](O)[C@H]2O)n1,,VERO,>100 µg/mL
CC1(C)OC2C(O1)[C@@H](COS(=O)(=O)NC(=O)OC1O[C@H](COCc3ccccc3)[C@@H](OCc3ccccc3)[C@H](OCc3ccccc3)[C@H]1OCc1ccccc1)O[C@H]2n1ncc(=O)[nH]c1=O,Sicilian,VERO,246 µg/mL
C=C(N=CC)c1nc(-c2cccc(C)c2)n(C2O[C@H](CO)[C@@H](O)[C@H](O)[C@H]2O)n1,,VERO,>100 µg/mL
Cc1nc(Cc2ccccc2)c2[nH]c(=S)[nH]c(=O)n12,,VERO,>100 µg/mL
C=CC1=C[C@@H](n2cnc3c(N)ncnc32)[C@H](O)[C@@H]1O,,VERO,>200 µg/mL
CC(=O)OC[C@H]1O[C@@H](n2ncc(=O)[nH]c2=O)[C@H](OC(C)=O)[C@@H]1OC(C)=O,Sicilian,VERO,2.65 µg/mL
CSCC1=C[C@@H](n2cnc3c(N)ncnc32)[C@H](O)[C@@H]1O,,VERO,>200 µg/mL
NC1CSCON2CCc3c([nH]c4ccccc34)[C@H]12,,VERO,0.2 µg/mL
Nc1ccn([C@@H]2O[C@H](CO)[C@@H](F)[C@H]2O)c(=O)n1,,VERO B,>400 µg/mL
O=c1cnn([C@@H]2O[C@H](COP(=O)(O)O)[C@@H](O)[C@H]2O)c(=O)[nH]1,Sicilian,VERO,14.7 µg/mL
Cc1cn([C@H]2O[C@H](CO)[C@@H](N=[N+]=[N-])[C@H]2F)c(=O)nc1N,,VERO B,>400 µg/mL
CC=NC(=N)c1nc(-c2ccccc2)n(COCCO)n1,,VERO,>200 µg/mL
O=c1ccn([C@@H]2O[C@H](CO)[C@@H](F)[C@H]2O)c(=O)[nH]1,,VERO B,>400 µg/mL
CC=NC(=N)c1nc(-c2ccc(OC)cc2)n(COCCO)n1,,VERO,>10 µg/mL
Nc1ccn(CCCC(O)CF)c(=O)n1,,VERO,>400 µg/mL
Nc1ccn([C@@H]2C[C@H](CO)[C@@H](O)[C@H]2O)c(=O)n1,,VERO,3 µg/mL
CON1CCc2c([nH]c3ccccc23)[C@@H]1[C@@H](N)CSC,,VERO,>40 µg/mL
Nc1ncnc2c1ncn2[C@H]1C[C@@H](CO)[C@H](O)[C@@H]1O,,VERO,>400 µg/mL
C=CCc1nc(C)n2c(=O)[nH]cnc12,,VERO,>200 µg/mL
Nc1ccn(C(CF)CCCO)c(=O)n1,,VERO,>400 µg/mL
CC=NC(=N)c1nc(-c2cccc(OC)c2)n(COCCO)n1,,VERO,>100 µg/mL
NC1CSCCN2CCc3c([nH]c4ccccc34)[C@H]12,,VERO,20 µg/mL
CC1=C[C@@H](n2cnc3c(N)ncnc32)[C@H](O)[C@@H]1O,,VERO,>200 µg/mL
C=C(N=CC)c1nc(-c2ccc(OC)cc2)n([C@@H]2O[C@H](CO)[C@@H](O)[C@H]2O)n1,,VERO,>100 µg/mL